pIC50: −log10 of the molar value.

Holding throughout (experiment): cell viability assay (MTS)
What all share (format): cell-based, human

One assay has as its system HeLa cells. The note with it: agent titrated + 10 pM CD71mab-saporin, read-out: IC50 cell killing.
The next assay relates to MDA-MB-468 cells. The note with it: MDA-MB-468; agent alone; listed as Cetuximab-Cys-(dendron(-L-SO1861)^4)^3,9.
The test system of another assay is SK-BR-3 cells.

Consider “cetuximab-Cys-(dendron(-L-SO1861)^4)^3,9: Dendron(-L-SO1861)^4 conjugated to cetuximab via cysteine residues”, for which the negative logarithm of the IC50 (pIC50) in the assay with HeLa cells is less than 7.00. Further, the cell killing activity result in the assay with MDA-MB-468 cells is recorded as “could not be induced”. For the substance “trastuzumab-(Cys-S-SO1861)^4: stable-linked SO1861 conjugated to trastuzumab”, the IC50 cell killing entry with SK-BR-3 cells (SK-BR-3 (HER2++), agent titrated + fixed 50 pM trastuzumab-saporin) is recorded as “The same data were revealed”.

Consider “trastuzumab-(L-SO1861)^3,8: labile SO1861 conjugated to trastuzumab”, for which, in the assay on SK-BR-3 cells (SK-BR-3, agent alone), the IC50 cell killing result is listed as “not observed”.

A word on the pIC50: it is the IC50 on a negative log10 scale, so that one unit is a factor of ten.
